Test results reported in patent publication US9920088B2, “Triterpene derivative and its anti-influenza use” (Peking University, priority 2012, dated 2018).

System: MDCK cells
Experiment: Cytotoxicity (CellTiter-Glo), MDCK cells

Substance: echinocystic acid [EA, reference compound]
- cytotoxicity (50 μM): obvious cytotoxicity
- Cell viability(%) (Table 5, 50 μM, 48 h, DMSO = 100): 73.5%
